Record: PubChem BioAssay AID1259414 (Drosophila RNAi Screening Center, 2018)

Assay: 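Fly genes that alter Wolbachia amount inside host cells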 (primary screen)
Cells: Drosophila JW18 cells infected with Wolbachia
Knock-down reagent: long dsRNA against Drosophila genes, 0.25 µg dsRNA per well of a 384-well plate
Timing: 5 days
Treatment: cells persistently infected with Wolbachia before knock-down; no added drug
Measured: 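Imaged fluorescence in situ signal for Wolbachia 23S rRNA per DAPI-counted host cell, given as a robust z-score within each plate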
Direction: Wolbachia per cell robust z: higher = more Wolbachia per host cell than the plate typical
Rule for the call: 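Hit when robust z is 1.5 or more, or -1.5 or less, in at least two of three replicates; excludes dsRNAs with several or no targets, genes not expressed in JW18 and well A1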
The screen tested about 24,000 reagents; this is an unselected part of those with a known target gene and a result. In the full data, about 1,210 (5%) were called active. 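Inactive calls also include excluded dsRNAs with several or no targets, genes unexpressed in JW18, and well A1, regardless of score.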 A number with no mark means an inactive call. The numbers tell different reagents against one gene apart. Names joined by + are all predicted targets of the reagent.

no.	Target gene	dsRNA no.	Wolbachia per cell robust z, rep 1	Wolbachia per cell robust z, rep 2	Wolbachia per cell robust z, rep 3
1	CG12531	1	-0.174	0.695	0.229
2	CG12531	2	0.805	1.11	1.04
3	Miga (Mitoguardin)	1	-5.1	-0.389	0.855
4	Rtnl2	1	-0.237	-1.34	-1.2
5	Rtnl2	2	-1.25	0.304	1.26
6	Rtnl2	3	-0.744	-0.927	0.318
7	Cpr49Ah (Cuticular protein 49Ah)	1	1.95	-0.658	1.35
8	Cpr49Ah (Cuticular protein 49Ah)	2	1.21	0.522	0.819
9	klg (klingon)	1	-0.496	0.258	0.189
10	klg (klingon)	2	-0.198	0.43	1.04
11	CG42676	1	-0.61	-0.982	-0.702
12	CG42676	2	-0.377	-0.229	1.04
13	CG4462	1	0.641	-4.08	-0.182
14	CG4462	2	0.85	5.03	-0.37
15	CG11155	1	-5.98	-0.112	-0.67
16	CG11155	2	-7.15 (active)	-2.15	-6.36
17	Nepl4 (Neprilysin-like 4)	1	0.566	0.496	-0.16
18	polo	1	-4.03 (active)	-2.21	-0.00529
19	polo	2	1.09	0.373	0.617
20	polo	3	-0.207	-0.463	0.162
21	CG30096	1	-0.183	0.64	-0.313
22	Gr47a (Gustatory receptor 47a)	1	-7.91	-0.0785	-2.54
23	CG1835	1	0.793	0.288	0.836
24	CG8850	1	-0.214	-2.29	-1.08
25	CG8850	2	0.311	-1.02	0.738
26	Su(P) (Suppressor of ref(2)P sterility)	1	0.974	-1.28	0.718
27	Su(P) (Suppressor of ref(2)P sterility)	2	0.393	0.251	0.64
28	pbl (pebble)	1	2.78 (active)	2.38	3.39
29	pbl (pebble)	2	1.83 (active)	2.91	2.23
30	CG13398	1	-1.68	-1.16	-0.936
31	eIF3g2 (eukaryotic translation initiation factor 3 subunit g2)	1	0.375	0.232	-1.51
32	eIF3g2 (eukaryotic translation initiation factor 3 subunit g2)	2	-3.66	0.398	1.23
33	CG4714	1	0.318	-0.698	-0.129
34	CG5174	1	-0.334	0.257	0.313
35	CG5174	2	0.677	-0.814	0.162
36	saturn	1	-1.33	-1.72	0.169
37	saturn	2	0.61	1.57	1.44
38	sdk (sidekick)	1	-0.637	-0.79	-0.576
39	CG5880	1	-1.49	0.0527	0.359
40	CG13048	1	0.664	0.709	-0.294
41	CG13048	2	-0.713	-0.607	-0.0918
42	Mal-A6 (Maltase A6)	1	-0.268	-0.811	-0.396
43	Mal-A6 (Maltase A6)	2	-0.374	-0.462	-0.272
44	CG42690	1	-0.0381	0.0676	-1.86
45	gzl (godzilla E3 ubiquitin protein ligase)	1	1.12	0.878	-0.433
46	gzl (godzilla E3 ubiquitin protein ligase)	2	0.396	-0.377	-4.95
47	Rbp (RIM-binding protein)	1	3.73	9.41	12.2
48	Rbp (RIM-binding protein)	2	0.845	-0.494	0.274
49	CG3649	1	0.249	0.618	-2.39
50	CG3649	2	0.27	-0.761	-1.73
51	Rab9Fa + Rab9E + Rab9Db + 1 more	1	-5.23	0.654	0.29
52	ND-B15 (NADH dehydrogenase (ubiquinone) B15 subunit)	1	0.0609	-0.146	-2.61
53	CG43292	1	0.797	0.889	0.216
54	LanB1	1	0.481	0.145	0.38
55	LanB1	2	-0.413	-0.696	-0.325
56	CG12259	1	-0.253	-0.392	0.395
57	CG12259	2	0.875	-0.575	0.759
58	CG31909	1	0.561	0.654	0.121
59	CG31909	2	-0.493	-2.42	0.13
60	CG3655	1	-0.0276	-0.648	0.256
61	CG3655	2	-0.453	-0.225	0.255
62	CG3655	3	0.297	0.223	-0.975
63	Fs(2)Ket (Female sterile (2) Ketel)	1	0.864 (active)	1.71	1.53
64	Fs(2)Ket (Female sterile (2) Ketel)	2	1.08	0.921	1.98
65	alrm (astrocytic leucine-rich repeat molecule)	1	0.741	0.106	-0.424
66	Rlb1	1	-3.29	0.792	0.435
67	Rlb1	2	0.625	-0.125	0.746
68	dpr1 (defective proboscis extension response 1)	1	0.429	0.73	0.78
69	sub (subito)	1	0.612	0.282	-1.41
70	CG5250	1	0.498	-0.256	0.668
71	Cdc37 (Cell division cycle 37)	1	-0.238	-0.367	0.509
72	Cdc37 (Cell division cycle 37)	2	1.27	1.63	1.8
73	Cdc37 (Cell division cycle 37)	3	0.779	-0.058	-0.262
74	Scp2 (Sarcoplasmic calcium-binding protein 2)	1	-0.88	0.203	-0.302
75	Scp2 (Sarcoplasmic calcium-binding protein 2)	2	0.319	-1.14	1.49
76	esg (escargot)	1	0.363	0.243	-0.555
77	CG10428	1	-0.568	0.159	0.0248
78	CG12231	1	0.282	0.726	1.15
79	CG34432	1	0.521	-0.221	-0.482
80	Tbc1d15-17 (TBC1 domain family member 15/17)	1	0.336	0.445	1.38
81	Tbc1d15-17 (TBC1 domain family member 15/17)	2	0.165	0.638	1.59
82	CG12607	1	0.553	0.431	-0.528
83	Kdm4A (Lysine demethylase 4A)	1	-1.29	0.0807	-1.71
84	Kdm4A (Lysine demethylase 4A)	2	-0.411 (active)	-6.85	-7.34
85	CG6282	1	-0.6	-4.24	-0.165
86	CG6282	2	-0.816	0.487	0.915
87	CG42671	1	-0.0738	-1.65	-1.1
88	CG42671	2	-1.13	-0.286	0.378
89	CG42671	3	-1.17	-1.23	-0.121
90	CG42671	4	2.11	0.436	2.46

Entries listed so far whose target name starts with K or k (4):
Target gene	dsRNA no.	Wolbachia per cell robust z, rep 1	Wolbachia per cell robust z, rep 2	Wolbachia per cell robust z, rep 3
klg (klingon)	1	-0.496	0.258	0.189
klg (klingon)	2	-0.198	0.43	1.04
Kdm4A (Lysine demethylase 4A)	1	-1.29	0.0807	-1.71
Kdm4A (Lysine demethylase 4A)	2	-0.411 (active)	-6.85	-7.34
